A mixed list of measured activities; the numbers were collected in NIAID ChemDB.

All rows: growth or infection tests; organism: HIV-1; measure: fold resistance

Fold resistance has wild type as its base. Lines come from different laboratories, so protocols vary. Blank or dashed fields: not listed here.

compound | mutations | strain | method | cell line | value
Cc1cn([C@H]2C[C@H](N=[N+]=[N-])[C@@H](COC(=O)NCCSC(=O)OC[C@@H]3CC[C@H](n4cnc5c(=O)[nH]cnc54)O3)O2)c(=O)[nH]c1=O | RT-Y181C | NNRTI-resistant (RT Y181C) | cytopathic effect / MTT | MT-4 | 0.2
Cc1cn([C@H]2C[C@H](N=[N+]=[N-])[C@@H](CO)O2)c(=O)[nH]c1=O | RT-F77L F116Y Q151M | RT F77L/F116Y/Q151M | p24 | MT-2 | 54.6
Cc1cc(S(N)(=O)=O)ccc1NC(=O)COc1ccc(Cl)cc1C(=O)c1cc(Cl)cc(C#N)c1 | RT-Y181C | NNRTI-resistant (RT Y181C) | β-galactosidase | MAGI | 1.35
Cc1cn([C@@H]2O[C@H](CO[Si](C)(C)C(C)(C)C)C3(OS(=O)(=O)C=C3N)[C@H]2O[Si](C)(C)C(C)(C)C)c(=O)n(C)c1=O | RT-V106A | IIIB NEV(RT-V106A) | syncytia | CEM | 83.3
Cc1ccc(NC(=S)NC[C@H](C)c2ccccc2)nc1 | RT-Y181C | NNRTI-resistant (RT Y181C) A17 | p24 | PBMC | 366
CC(C)Nc1cccnc1N1CCN(C(=O)c2cc3cc(NS(C)(=O)=O)ccc3[nH]2)CC1 | RT-K103N Y181C | A17 | - | PBMC | >11100
COc1ccc(S(=O)(=O)N(CC(C)C)C[C@@H](O)[C@H](Cc2ccc(OC)c(Cl)c2)NC(=O)O[C@H]2CO[C@H]3OCC[C@H]32)cc1 | L10F M46I I54V V82A | NL4-3 | p24 / luminescence | MT-4 | 6
C[C@@H](CNC(=S)Nc1ccc(Br)cn1)c1ccccc1 | RT-Y181C K103N | NNRTI-resistant (RT Y181C K103N) A17V | p24 | PBMC | 366
Cc1cn([C@@H]2O[C@H](CO[Si](C)(C)C(C)(C)C)C3(OS(=O)(=O)C=C3N)[C@H]2O[Si](C)(C)C(C)(C)C)c(=O)n(C)c1=O | RT-E138K | IIIB | syncytia | CEM | >1600
O=c1[nH]cnc2c1ncn2[C@H]1CC[C@@H](CO)O1 | RT-M184V | M184V(RT-M184V) | p24 | MT-2 | 1.9
Nc1nc(=O)n([C@@H]2CS[C@H](CO)O2)cc1F | RT-D67N K70R T215F K219Q | RTMC (RT D67N K70R T215F K219Q) | plaque count | HT4 + HT4 LacZ-1 | 2.67
O=c1[nH]cnc2c1ncn2[C@@H]1O[C@H](CO)C[C@@H]1F | RT-P119S L214F | RT P119S L214F | p24 | MT-2 | 3.5
c1ccc(C2OCc3nc4ccccc4n32)cc1 | RT-E138K | TSAO-resistant (RT E138K) | cytopathic effect / MTT | CEM | >0.402
O=c1[nH]cnc2c1ncn2[C@H]1CC[C@@H](CO)O1 | RT-E138K | IIIB | syncytia | CEM | 2.17
C[C@H](CNC(=S)Nc1ccc(Cl)cn1)c1ccccc1 | RT-Y181C K103N | NNRTI-resistant (RT Y181C K103N) A17V | p24 | PBMC | >2500
CCCCCCCCCCCCSCC(COP(=O)([O-])OCC[N+](C)(C)C)OCCCCCCCCO | RT mutant at codon 215 | Clinical isolate G910-6 post-AZT | plaque count | CEM + CEM-SS | 6
Cc1cn([C@@H]2O[C@H](CO[Si](C)(C)C(C)(C)C)[C@@]3(OS(=O)(=O)C=C3N)[C@H]2O[Si](C)(C)C(C)(C)C)c(=O)[nH]c1=O | RT-E138K | IIIB | syncytia | CEM | 94
S=C(NCCc1cccs1)Nc1ccc(Br)cn1 | RT-Y181C K103N | NRTI resistant (RT Y181C K103N) A17 variant | p24 | PBMC | 106.6
CCn1c(=O)c(C)cn([C@@H]2O[C@H](CO[Si](C)(C)C(C)(C)C)C3(OS(=O)(=O)C=C3N)[C@H]2O[Si](C)(C)C(C)(C)C)c1=O | RT-E138K | IIIB | syncytia | CEM | >889
CCOCn1c(Sc2ccccc2)c(CC)c(=O)[nH]c1=O | RT-K103N | IIIB TIBO R82913-resistant (RT K103N) | syncytia | CEM | 126
CCNc1cccnc1N1CCN(C(=O)c2cc3cc(OC)ccc3[nH]2)CC1 | RT-V106A | BaL | p24 | Macrophage + Monocytes/macrophages | >35
Nc1ccn([C@H]2CC[C@@H](CO)O2)c(=O)n1 | RT-M41L T215Y | RTMN (RT-M41L T215Y) | plaque count | HT4 + HT4 LacZ-1 | 2.96
CCc1cc(NCc2nc3c(Cl)ccc(Cl)c3o2)c(=O)[nH]c1C | RT-Y188H | IIIB HEPT-resistant (RT Y188H) | syncytia | CEM | 214
CC(C)(C)OC(=O)N[C@@H](Cc1ccccc1)[C@H](O)CNC[C@@H](O)[C@H](Cc1ccc(OCC(=O)N2CCOCC2)cc1)NC(=O)OC(C)(C)C | PR-G48V I54V A71T V82A | RF | - | MT-2 | 12.8
CCc1cc(NCc2nc3c(Cl)ccc(Cl)c3o2)c(=O)[nH]c1C | RT-Y181C | NL4-3 | p24 | MT-4 | >30
O=c1[nH]cnc2c1ncn2[C@H]1CC[C@@H](CO)O1 | RT-K103N Y181C | NNRTI-resistant (RT K103N Y181C) | cytopathic effect / MTT | MT-4 | 0.9
COC(=O)c1cc2c(c(OC)c1-c1ccc(N(C)C)cc1)OCO2 | V108I | NL4-3 | antigen | C8166 | 25
Cc1cn([C@H]2C=C[C@@H](CO)O2)c(=O)[nH]c1=O | RT-Y181C | NNRTI-resistant (RT Y181C) | cytopathic effect / MTT | MT-4 | 0.24
Cc1csc(NC(=S)NC[C@H](C)c2ccccc2)n1 | RT-Y181C K103N | NNRTI-resistant (RT Y181C K103N) A17V | p24 | PBMC | 18
Fc1cccc(Cl)c1C1OCc2nc3ccccc3n21 | RT-L100I | TIBO R82150-resistant (RT L100I) | cytopathic effect / MTT | CEM | 1.24
CC(C)Nc1cccnc1N1CCN(C(=O)c2cc3cc(NS(C)(=O)=O)ccc3[nH]2)CC1 | RT-Y181C | NRTI resistant (RT Y181C) A17 | p24 | PBMC | 11100
Cc1csc(NC(=S)N[C@H](C)c2ccccc2)n1 | RT-Y181C | NNRTI-resistant (RT Y181C) A17 | p24 | PBMC | >164
S=C(NCCc1ccccn1)Nc1ccc(Br)cn1 | RT-V106A | RT-MDR(RT-V106A) | - | PBMC | 2.86
CC(C)Nc1cccnc1N1CCN(C(=O)c2cc3cc(NS(C)(=O)=O)ccc3[nH]2)CC1 | RT-P236L | BaL | p24 | Macrophage + Monocytes/macrophages | 370
Cc1ccnc2c1NC(=O)c1cccnc1N2C1CC1 | RT-V106A | RT-MDR(RT-V106A) | - | PBMC | 147
Nc1ncnc2c1ncn2CCOCP(=O)(O)O | RT-E138K | IIIB | syncytia | CEM | 1.76
Nc1ncnc2c1ncn2[C@@H]1O[C@H](CO)C[C@@H]1F | RT-L74V | L74V(RT-L74V) | p24 | MT-2 | 2.6
CCn1c(=O)c(C)cn([C@@H]2O[C@H](CO[Si](C)(C)C(C)(C)C)C3(OS(=O)(=O)C=C3N)[C@H]2O[Si](C)(C)C(C)(C)C)c1=O | RT-Y181C | IIIB E-EBU(RT-Y181C) | syncytia | CEM | >833
CC(C)(C)[Si](C)(C)OC[C@H]1O[C@@H](n2cnc3c(N)ncnc32)[C@H](O[Si](C)(C)C(C)(C)C)C12OS(=O)(=O)C=C2N | RT-E138K | IIIB | syncytia | CEM | >800
CCNc1cccnc1N1CCN(C(=O)c2cc3cc(OC)ccc3[nH]2)CC1 | RT-K103N | IIIB TIBO R82913-resistant (RT K103N) | syncytia | CEM | 85
CCCCCCCCCCCCSCC(COP(=O)([O-])OCC[N+](C)(C)C)OCCCCCCCCC(=O)OCC(=O)OC[C@H]1O[C@@H](n2cc(C)c(=O)[nH]c2=O)C[C@@H]1N=[N+]=[N-] | RT-T215F A98S D67N K219Q | 5346/5652-MDR (RT T215F A98S D67N K219Q) Drug-resistant | plaque count | CEM-SS | 1
Cc1cn([C@H]2C[C@H](N=[N+]=[N-])[C@@H](CO)O2)c(=O)[nH]c1=O | RT-T215Y | P035A (RT-T215Y) | plaque count | HT4 + HT4-6C | 56
CC(C)=CCN1Cc2cc(Cl)cc3[nH]c(=S)n(c23)C[C@@H]1C | RT-D67N K70R T215Y K219Q | RTMC | plaque count | HT4 + HT4 LacZ-1 | 1.27
Cc1cn([C@H]2C[C@H](N=[N+]=[N-])[C@@H](CO)O2)c(=O)[nH]c1=O | RT mutant at codon 215 | Clinical isolate G910-6 post-AZT | plaque count | CEM + CEM-SS | 660

Repeating the first 3 entries:

compound	mutations	strain	method	cell line	value
Cc1cn([C@H]2C[C@H](N=[N+]=[N-])[C@@H](COC(=O)NCCSC(=O)OC[C@@H]3CC[C@H](n4cnc5c(=O)[nH]cnc54)O3)O2)c(=O)[nH]c1=O	RT-Y181C	NNRTI-resistant (RT Y181C)	cytopathic effect / MTT	MT-4	0.2
Cc1cn([C@H]2C[C@H](N=[N+]=[N-])[C@@H](CO)O2)c(=O)[nH]c1=O	RT-F77L F116Y Q151M	RT F77L/F116Y/Q151M	p24	MT-2	54.6
Cc1cc(S(N)(=O)=O)ccc1NC(=O)COc1ccc(Cl)cc1C(=O)c1cc(Cl)cc(C#N)c1	RT-Y181C	NNRTI-resistant (RT Y181C)	β-galactosidase	MAGI	1.35